Assay results from article doi:10.1101/2020.02.11.944462.
Where “and” joins values, the source holds several entries; their conditions need not be identical. Identical values can stand only once.

Molecular target: 2019-nCoV S prefusion-stabilized ectodomain (residues 1-1208, two proline substitutions, GSAS at the (2019-nCoV | bacteriophage T4))
Experiment: SPR

Q: Which fold higher affinity than ACE2 binding to SARS-CoV S does the source give for “human angiotensin-converting enzyme 2 (ACE2), residues 1-615, untagged (from UniProt Q9BYF1 18-615) (receptor)” here?
A: Its fold higher affinity than ACE2 binding to SARS-CoV S is 10 fold and 20 fold.
